Pooled drug test results. Numbers come from NIAID ChemDB, via PubChem.

Common to all: growth or infection tests; organism: Cryptococcus neoformans

A number after MIC or MFC names an inhibition level or a share of isolates. ECn: concentration that inhibits the pathogen or its effect by n%. Neighbouring rows are from separate reports. Percent inhibition refers to the dose given; in toxicity tests it is the harm to the cells. Blank or dashed fields: not listed here. Zones are inhibition diameters on agar.

structure	tested at	read-out	strain or isolate	read by	setting	value
COc1cc(/C=C2\SC(=S)NC2=O)cc(OC)c1OCC(O)(Cn1cncn1)c1ccc(F)cc1F		MIC50	ATCC 34664	broth dilution		16 µg/mL
Nc1[nH]c(=O)ncc1F		MIC90	37 strains			≥16 µg/mL
CC(C(O)(Cn1cncn1)c1ccc(F)cc1F)S(C)(=O)=O		EC50	R715 (AZOLE-R)			3.5 µM
Cc1cc(C[n+]2cccc(C=NO)c2)on1.[Br-]		EC50		broth dilution		>20 µg/mL
CCn1nc(C)c(N=O)c1-c1cc(C)on1		MFC				0.1 µM
CCC(C)n1ncn(-c2ccc(N3CCN(c4ccc(OC[C@H]5CO[C@](Cn6cncn6)(c6ccc(Cl)cc6Cl)O5)cc4)CC3)cc2)c1=O		Geometric mean MIC	12 strains			0.114 µg/mL
O=C(O)C(Cc1ccccc1)N1C(=O)CSC1c1ccccn1		EC50		broth dilution		15.16 µM
CCOC(=O)CN(CCCOc1ccc(Br)cc1)CC(O)(Cn1cncn1)c1ccc(F)cc1F	1 µg/mL	inhibition				80%
CC1C(=O)N(Cc2ccccc2)C(=O)C1C		MIC	ATCC 32264	broth dilution / turbidity		125 µg/mL
Cc1ccc(-c2c3c(N)c4c(nc3nc3c2c(C)nn3-c2ccccc2)CCCC4)cc1		MIC50	ATCC 32264	broth dilution / absorbance		125 µg/mL
CCC(C)CC(C)CCCCCCCCC(=O)N[C@H]1C[C@@H](O)[C@H](NCCN)NC(=O)[C@@H]2[C@@H](O)CCN2C(=O)[C@H]([C@H](O)CCN)NC(=O)[C@H]([C@H](O)[C@@H](O)c2ccc(O)cc2)NC(=O)[C@@H]2C[C@@H](O)CN2C(=O)[C@H]([C@@H](C)O)NC1=O		Mean MIC	19 isolates			23.9 µg/mL
CN[C@H]1CC[C@@H](c2ccc(Cl)c(Cl)c2)c2ccccc21		MFC	92BC2-45	broth dilution		10 µg/mL
COc1ccc(-c2c3c(N)c4c(nc3nc3c2c(C)nn3-c2ccccc2)CCCCC4)cc1		MIC50	ATCC 32264	broth dilution / absorbance		250 µg/mL
COC1CC2CCC(C)C(O)(O2)C(=O)C(=O)N2CCCCC2C(=O)OC(C(C)CC2CCC(O)C(OC)C2)CC(=O)C(C)/C=C(\C)[C@@](O)(c2ccc(C)s2)C(OC)C(=O)C(C)CC(C)/C=C/C=C/C=C/1C		MFC	TOR1-1			>100 µg/mL
C[C@H]1[C@H](O)[C@@H](C)/C=C/C=C/C=C/C=C/C=C/C=C/C=C/[C@H](O[C@@H]2O[C@H](C)[C@@H](O)[C@H](N)[C@@H]2O)C[C@@H]2O[C@](O)(C[C@@H](O)C[C@@H](O)CC[C@H](O)[C@@H](O)C[C@@H](O)CC(=O)O[C@H]1C)C[C@H](O)[C@H]2C(=O)O		MIC99	Clinical isolate	broth dilution / absorbance		<0.195 µM
Brc1cnc2[nH]c(CN3CCCCC3)cc2c1		MIC100	ATCC90112			15.6 µg/mL
CC(C(=O)O)N1C(=O)CCSC1c1ccccc1		EC50		broth dilution		23.7 µM
CC1(O)OC(=O)C(c2ccc(OCC(O)(Cn3cncn3)c3ccc(F)cc3F)cc2)=C1c1ccc(F)cc1F		MIC50	ATCC 34664	broth dilution		16 µg/mL
O=[N+]([O-])c1ccc(C=Nc2ccccc2O)cc1		MIC99	28JF			11.3 µg/mL
C[C@@H]1CC(=O)N(c2ccc(Br)cc2)C1=O		MIC	ATCC 32264	broth dilution / turbidity		62.5 µg/mL
OC(CN1CCN(c2ccc(OCc3ccncc3)cc2)CC1)(Cn1cncn1)c1ccc(F)cc1F		MIC80	ATCC32609			2 µg/mL
Oc1ccc(O)c(C=Nc2ccccc2O)c1		MIC99	ATCC 62066			2.8 µg/mL
O=C1N[C@@H](Cc2c[nH]c3ccccc23)C(=O)N2CCC[C@@H]12		MIC100		broth dilution		2 µg/mL
C[C@@H](c1ncncc1F)[C@](O)(Cn1cncn1)c1ccc(F)cc1F		MIC	B 35735	broth dilution		0.031 µg/mL
CCOC(=O)c1c(C)nc(OCCCNc2ccnc3cc(Cl)ccc23)nc1-c1ccccc1		MIC99	LMM 820			8 µg/mL
CCN1CCC(O)(/C=C/c2ccc(Cl)c(Cl)c2)C(C(=O)/C=C/c2ccc(Cl)c(Cl)c2)C1		Mean MIC	2 strains			3.12 µM
COc1ccccc1C1SCC(=O)N1CC(=O)O		EC50		broth dilution		79.49 µM
Oc1ccccc1N=Cc1ccc(O)c(O)c1O		MIC	LMM 820	broth dilution		11.3 µg/mL
Cc1cc(-c2c(N=O)c(C)nn2-c2ccccc2)no1		MFC				66 µM
C[Si](C)(C)C#Cc1cnc2[nH]c(-c3ccccc3)cc2c1		MIC100	ATCC90112			3.9 µg/mL
CCCCc1oc2ccccc2c1C(=O)c1cc(I)c(OCCN(CC)CC)c(I)c1	7 µM	inhibition	271			100%
O=C1OCC(c2ccccc2)=C1c1ccc(OCC(O)(Cn2cncn2)c2ccc(F)cc2F)cc1		MIC50	ATCC 34664	broth dilution		4 µg/mL
C[C@@H]1C(=O)N(CCCCc2ccccc2)C(=O)[C@@H]1C		MIC	ATCC 32264	broth dilution / turbidity		31.3 µg/mL
CC(C(=O)O)N1C(=O)CSC1c1ccc(Cl)cc1		EC50		broth dilution		33.91 µM
O/N=C/c1cc[n+](Cc2ccc(C[n+]3ccc(/C=N/O)cc3)s2)cc1.[Cl-].[Cl-]		EC50		broth dilution		>20 µg/mL
Clc1ccc(COC(Cn2ccnc2)c2ccc(Cl)cc2Cl)c(Cl)c1		Mean MIC	12 strains			0.24 µg/mL
COC(=O)[C@H]1[C@@H]2C[C@@H](O[C@@H]3O[C@H](C)[C@@H](O)[C@H](N)[C@@H]3O)/C=C/C=C/C=C/C=C/C=C/C=C/C=C/[C@H](C)[C@@H](O)[C@H](C)[C@H](C)OC(=O)C[C@H](O)C[C@H](O)[C@@H](O)CC[C@H](O)C[C@H](O)C[C@](O)(C[C@@H]1O)O2		MFC				0.8 µM
CC[C@@H]([C@H](C)O)n1ncn(-c2ccc(N3CCN(c4ccc(OC[C@@H]5CO[C@@](Cn6cncn6)(c6ccc(F)cc6F)C5)cc4)CC3)cc2)c1=O		Geometric mean MIC	9 strains			0.25 µg/mL
Oc1cccc(C=Nc2ccccc2O)c1		MIC99	VM-MCMMPI			4 µg/mL
C[C@@H](c1ncncc1F)[C@](O)(Cn1cncn1)c1ccc(F)cc1F		MIC90	12 strains			0.12 µg/mL
COc1ccc(-c2c3c(N)c4c(nc3nc3c2c(C)nn3-c2ccccc2)CCC4)cc1		MIC50	ATCC 32264	broth dilution / absorbance		31.2 µg/mL
CCN1CCC(O)(/C=C/c2ccc(Cl)cc2)C(C(=O)/C=C/c2ccc(Cl)cc2)C1		Mean MIC	2 strains			1.17 µM
O=C1OCC(c2cccs2)=C1c1ccc(OCC(O)(Cn2cncn2)c2ccc(F)cc2F)cc1		MIC50	ATCC 34664	broth dilution		8 µg/mL
CC1=Cc2c(CO)c(O)c(C)c(O)c2CO1	100 µM	zone	ATCC90112	agar diffusion		13 mm
C[C@@H]([C@H](N)C(=O)N[C@H](C(=O)O)[C@H]1O[C@@H](n2ccc(=O)[nH]c2=O)[C@H](O)[C@@H]1O)[C@H](O)c1ccc(O)cn1		Geometric mean MIC	38 isolates			127 µg/mL
O=C(O)C(Cc1ccccc1)N1C(=O)CSC1c1ccccc1		EC50		broth dilution		24.01 µM
Cc1cnc2[nH]c(-c3ccccc3)cc2c1		MIC100	ATCC90112			7.8 µg/mL
C[C@@H](n1cnc2cc(Cl)ccc2c1=O)[C@](O)(Cn1cncn1)c1ccc(F)cc1F		MFC	Isolate 125.96			20 µg/mL
CC(C(=O)O)N1C(=O)CSC1c1ccccc1		EC50		broth dilution		43.28 µM
COc1ccccc1-c1cc2cccnc2[nH]1		MIC100	ATCC90112			4 µg/mL
CC1=C(O)C(=O)C=C(O)C1=O	100 µM	zone		agar diffusion		0 mm
Cc1nn(-c2ccccc2)c2nc3nc4c(c(N)c3c(-c3ccc(Cl)cc3)c12)CCC4		MIC50	ATCC 32264	broth dilution / absorbance		250 µg/mL
CC(C)(C)NC(=O)[C@@H]1CN(Cc2cccnc2)CCN1C[C@@H](O)C[C@@H](Cc1ccccc1)C(=O)N[C@H]1c2ccccc2C[C@H]1O	10 µM	inhibition	H99	colony count	72 h	28%
COc1ccc(-c2cc3cccnc3[nH]2)cc1		MIC100	ATCC90112			4 µg/mL
Cn1nc(Cc2ccc(Cl)cc2)c2ccccc2c1=O		MIC80	Clinical isolate (IM 031631)	broth dilution		31.3 µg/mL
COC1CC2CCC(C)C(O)(O2)C(=O)C(=O)N2CCCCC2C(=O)OC(C(C)CC2CCC(O)C(OC)C2)CC(=O)C(C)/C=C(\C)C(O)[C@@](OC)(N(O)C(=O)OCC(C)C)C(=O)C(C)CC(C)/C=C/C=C/C=C/1C		MFC	WILD TYPE			>100 µg/mL
CCOC(=O)c1c(C)nc(NCCCCNc2ccnc3cc(Cl)ccc23)nc1-c1ccccc1[N+](=O)[O-]		MIC99	C-3-1			2 µg/mL
O=C(O)CN1C(=O)CSC1c1ccccn1		EC50		broth dilution		78.61 µM
Cc1ccc(-c2c3c(N)c4c(nc3nc3c2c(C)nn3-c2ccccc2)CCCCC4)cc1		MIC50	ATCC 32264	broth dilution / absorbance		125 µg/mL
O=C(O)C(Cc1ccccc1)N1C(=O)CCSC1c1ccccc1		EC50		broth dilution		47.09 µM
C=CC(C)(C)c1cc(C2CC(=O)c3c(cc(O)c(CC=C(C)C)c3O)O2)c(O)cc1O	2 mg/mL	zone	CSF 20772	agar diffusion / agar		12 mm
C[C@H]1[C@H](O)[C@@H](C)/C=C/C=C/C=C/C=C/C=C/C=C/C=C/[C@H](O[C@@H]2O[C@H](C)[C@@H](O)[C@H](N)[C@@H]2O)C[C@@H]2O[C@](O)(C[C@@H](O)C[C@@H](O)CC[C@H](O)[C@@H](O)C[C@@H](O)CC(=O)O[C@H]1C)C[C@H](O)[C@H]2C(=O)O		MFC99	A25838			0.25 µg/mL
CCCCCOc1ccc(-c2cc(-c3ccc(C(=O)N[C@H]4C[C@@H](O)[C@@H](O)NC(=O)[C@@H]5[C@@H](O)[C@@H](C)CN5C(=O)[C@H]([C@H](O)CC(N)=O)NC(=O)[C@H]([C@H](O)[C@@H](O)c5ccc(O)c(OS(=O)(=O)O)c5)NC(=O)[C@@H]5C[C@@H](O)CN5C(=O)[C@H]([C@@H](C)O)NC4=O)cc3)no2)cc1		EC50	H99	broth dilution		>2 µg/mL
Oc1ccccc1N=Cc1ccc2c(c1)OCO2		MIC	28JF	broth dilution		11.3 µg/mL
CC(C)(C)OC(=O)N1CCC(n2cc(C#N)nn2)CC1	200 µg/mL	inhibition	NCIM576	agar		0%

Again, the opening 4 rows:

structure | tested at | read-out | strain or isolate | read by | setting | value
COc1cc(/C=C2\SC(=S)NC2=O)cc(OC)c1OCC(O)(Cn1cncn1)c1ccc(F)cc1F |  | MIC50 | ATCC 34664 | broth dilution |  | 16 µg/mL
Nc1[nH]c(=O)ncc1F |  | MIC90 | 37 strains |  |  | ≥16 µg/mL
CC(C(O)(Cn1cncn1)c1ccc(F)cc1F)S(C)(=O)=O |  | EC50 | R715 (AZOLE-R) |  |  | 3.5 µM
Cc1cc(C[n+]2cccc(C=NO)c2)on1.[Br-] |  | EC50 |  | broth dilution |  | >20 µg/mL